Test results: publication PMC11087268, “A folate inhibitor exploits metabolic differences in Pseudomonas aeruginosa for narrow-spectrum targeting” (Nature Microbiology, 2024)
Several values for one entry are separate records, joined by “and”; a condition that tells them apart may be missing. Equal values may be shown once.

Test system: PA14
Experiment: Drug accumulation assay (intrabacterial drug metabolism, LC–MS)
Type: cell-based, Pseudomonas aeruginosa
Conditions: for Conc (nmol/L) in cell lysate / AUC0-90min of accumulation: PA14, 5 μM drug, one value per replicate
[1] = PA14, 5 μM fluorofolin, 30 min, listed as Fluorofolin
[2] = PA14, 5 μM fluorofolin, 60 min, listed as Fluorofolin
[3] = PA14, 5 μM fluorofolin, 90 min, listed as Fluorofolin
[4] = PA14, 5 μM trimethoprim, 60 min
[5] = PA14, 5 μM trimethoprim, 90 min

SMILES: Nc1nc(N)c2c(ccc3c2ccn3Cc2ccnc(F)c2)n1 [fluorofolin]
- Conc (nmol/L) in cell lysate (30 min): 1.0527 nmol/L and 1.3067 nmol/L and 1.086 nmol/L
- Conc (nmol/L) in cell lysate (60 min): 1.233 nmol/L and 1.363 nmol/L and 1.307 nmol/L
- Conc (nmol/L) in cell lysate (90 min): 1.25 nmol/L and 1.158 nmol/L and 1.224 nmol/L
- AUC0-90min of accumulation (listed as IRS-143): 1300 nmol*min/OD600 and 1470 nmol*min/OD600 and 1340 nmol*min/OD600
- accumulation normalized to OD600 [1]: 1.834 nmol/L*OD600 and 2.276 nmol/L*OD600 and 1.891 nmol/L*OD600
- accumulation normalized to OD600 (last column) [1]: 18.3396 nmol/OD600 and 22.7648 nmol/OD600 and 18.9119 nmol/OD600
- accumulation normalized to OD600 [2]: 1.712 nmol/L*OD600 and 1.893 nmol/L*OD600 and 1.816 nmol/L*OD600
- accumulation normalized to OD600 (last column) [2]: 17.1201 nmol/OD600 and 18.9348 nmol/OD600 and 18.1559 nmol/OD600
- accumulation normalized to OD600 [3]: 1.558 nmol/L*OD600 and 1.444 nmol/L*OD600 and 1.526 nmol/L*OD600
- accumulation normalized to OD600 (last column) [3]: 15.5838 nmol/OD600 and 14.4399 nmol/OD600 and 15.2577 nmol/OD600

SMILES: COc1cc(Cc2cnc(N)nc2N)cc(OC)c1OC [Trimethoprim, trimethoprim, reference compound]
- Conc (nmol/L) in cell lysate (30 min): 0.2535 nmol/L and 0.3222 nmol/L and 0.1566 nmol/L
- Conc (nmol/L) in cell lysate (60 min): 0.1918 nmol/L and 0.2044 nmol/L and 0.213 nmol/L
- Conc (nmol/L) in cell lysate (90 min): 0.3012 nmol/L and 0.2417 nmol/L and 0.3455 nmol/L
- AUC0-90min of accumulation: 254 nmol*min/OD600 and 284 nmol*min/OD600 and 182 nmol*min/OD600
- accumulation normalized to OD600 [4]: 0.2517 nmol/OD600 and 0.2682 nmol/OD600 and 0.2796 nmol/OD600
- accumulation normalized to OD600 (last column) [4]: 2.517 µmol/OD600 and 2.682 µmol/OD600 and 2.796 µmol/OD600
- accumulation normalized to OD600 [5]: 0.3296 nmol/OD600 and 0.2644 nmol/OD600 and 0.3781 nmol/OD600
- accumulation normalized to OD600 (last column) [5]: 3.296 µmol/OD600 and 2.644 µmol/OD600 and 3.781 µmol/OD600
